Measurements published in PMC10246530.

Key:
[1] = target: T1, SARS-CoV-2 nucleocapsid NTD (WT) (SARS-CoV-2 (reference genome …, UniProt P0DTC9 44-180)); assay: ITC; second event (SL4 part), integrated from both directions, low salt; details: protein: recombinant; tags: cleaved tag; one artificial N-terminal Gly left; label: 5'-32P in EMSA; 15N-U/G for RNA-observed NMR; hairpin with 3' labile extension
[2] = target: T1, SARS-CoV-2 nucleocapsid NTD (WT); assay: ITC; first event (Ext part), integrated from both directions, low salt; details: protein: recombinant; tags: cleaved tag; one artificial N-terminal Gly left; label: 5'-32P in EMSA; 15N-U/G for RNA-observed NMR; hairpin with 3' labile extension

B1: SL4ext (SL4_extSL4) (structured_RNA)
RNA: GGUCUGUGUGGCUGUCACUCGGCUGCAUGCUUAGUGCACUCACGCAGUAUAAUUAAUAACUAAUUACUG
Kd [1]: 99 µM | Kd [2]: 0.5 µM
